A mixed list of measured activities; the numbers were collected in NIAID ChemDB.

Common to all: growth or infection tests; organism: Candida albicans; endpoint: MIC

Blank or dashed fields: not listed here. Rows are shuffled and stem from different studies.

smiles	strain or isolate	method	value
CCCCCCCCOc1ccc(C(=O)NC2C[C@@H](O)[C@@H](O)NC(=O)C3[C@@H](O)[C@@H](C)CN3C(=O)C(C(C)O)NC(=O)C([C@H](O)[C@@H](O)c3ccc(O)cc3)NC(=O)C3C[C@@H](O)CN3C(=O)C(C(C)O)NC2=O)cc1	MY1208	-	1 µg/mL
CS(=O)C[C@@H](N)C(=O)N[C@H]1[C@@H](O)[C@H](n2cnc3c(N)ncnc32)O[C@@H]1C(=O)O	FP633	-	>100 µg/mL
C[C@@H](c1ncncc1F)[C@](O)(Cn1cncn1)c1ccc(F)cc1F	Isolate 1490	-	0.03 µg/mL
Cc1onc(-c2ccc(Cl)cc2Cl)c1C=O	-	-	50 µg/mL
Nn1c(SCC(O)(Cn2cncn2)c2ccc(Cl)cc2Cl)nnc1-c1ccc(F)cc1	IRFC 37	broth dilution	>64 µg/mL
CCCC(O)C/C=C\C=C\C(=O)OC[C@H]1O[C@@H](O[C@@H]2[C@H](OC(=O)/C=C/C=C/CC(O)/C(C)=C/C=C/CCC(C)CC)[C@@H](O)[C@]3(OCc4cc(O)cc(O)c43)O[C@@H]2CO)[C@H](O)[C@@H](O)[C@H]1O	MY1208	-	1 µg/mL
c1cc(-c2cc3ccc(C4=NCCN4)cc3s2)ccc1C1=NCCN1	-	-	>60 µg/mL
N[C@@H](Cc1ccccc1)C(=O)N[C@H]1[C@@H](O)[C@H](n2ccc(=O)[nH]c2=O)O[C@@H]1C(=O)O	FP633	-	>100 µg/mL
CSc1nnc(-c2ccccc2[N+](=O)[O-])s1	ATCC 10231	-	>100 µg/mL
CC(=O)N1N=C(c2ccc(C)cc2)CC1c1cn(-c2ccccc2)nc1-c1ccc(Br)s1	-	-	>200 µg/mL
N=C(N)c1ccc2c(c1)[nH]c1c3cc(C(=N)N)ccc3sc21	-	-	>60 µg/mL
CC(C)C(=N)CCC[C@H]1CO[C@@](Cn2cccc2)(c2ccc(F)cc2F)C1	B02630	-	100 µg/mL
Cc1onc(-c2ccc(F)cc2)c1C=O	-	-	>50 µg/mL
Nn1c(SCC(O)(Cn2cncn2)c2ccc(Cl)cc2Cl)nnc1-c1ccc(O)cc1	IRFC 192	broth dilution	>64 µg/mL
Nc1ncnc2c1ncn2[C@@H]1O[C@H](C(=O)O)[C@@H](NC(=O)C(N)CSCc2ccc(Cl)cc2)[C@H]1O	FP633	-	0.2 µg/mL
Nn1c(SCC(O)(Cn2cncn2)c2ccc(Cl)cc2Cl)nnc1-c1ccncc1	IRFC 37	broth dilution	>64 µg/mL
Cc1ccc(C2=NN(C(=S)Nc3ccccc3)C(c3cn(-c4ccccc4)nc3-c3ccc(Br)s3)C2)cc1	-	-	>200 µg/mL
CC(C)C(=O)CCC[C@@H]1CO[C@@](Cn2cncn2)(c2ccc(F)cc2F)C1	A.10231	-	>100 µg/mL
Cc1ccc(C(O)c2cccc(C(=O)CCn3ccnc3)c2)cc1	RTCC 1003	broth dilution	>64 µg/mL
Nc1ncnc2c1ncn2[C@@H]1O[C@H](C(=O)O)[C@@H](NC(=O)Cc2ccccc2)[C@H]1O	FP633	-	>100 µg/mL
C[C@H]1[C@H](O)[C@@H](C)/C=C/C=C/C=C/C=C/C=C/C=C/C=C/[C@H](O[C@@H]2O[C@H](C)[C@@H](O)[C@H](N)[C@@H]2O)C[C@@H]2O[C@](O)(C[C@@H](O)C[C@@H](O)CC[C@H](O)[C@@H](O)C[C@@H](O)CC(=O)O[C@H]1C)C[C@H](O)[C@H]2C(=O)O	A25578 (flucytosine-resistant)	-	0.13 µg/mL
Cc1ccc(C2=NN(N=O)C(c3cn(-c4ccccc4)nc3-c3ccc(Br)s3)C2)cc1	-	-	200 µg/mL
COc1ccc(-c2nnc(SCC(O)(Cn3cncn3)c3ccc(Cl)cc3Cl)n2N)cc1	PTCC 6027	broth dilution	8 µg/mL
N=C(N)c1ccc2oc(C(=O)Nc3ccc(C4=NCCN4)cc3)cc2c1	-	-	>60 µg/mL
Cc1onc(-c2ccc(OCc3ccccc3)cc2)c1C=O	-	-	>50 µg/mL
Nc1ncnc2c1ncn2[C@@H]1O[C@H](C(=O)O)[C@@H](NC(=O)C2CSCN2)[C@H]1O	FP633	-	>100 µg/mL
C(=C\c1cc2cc(C3=NCCN3)ccc2o1)/c1ccc(Oc2ccc(C3=NCCN3)cc2)cc1	-	-	>60 µg/mL
CS(=O)(=O)c1nnc(Cc2cc([N+](=O)[O-])ccc2-c2ncc[nH]2)s1	ATCC 10231	-	1.56 µg/mL
CC(NC(=O)[C@H]1O[C@@H](n2cnc3c(N)ncnc32)[C@H](O)[C@@H]1NC(=O)C(N)CSCc1ccccc1)P(=O)(O)O	FP633	-	1.6 µg/mL
CC(C)C(=O)CCC[C@@H]1CO[C@@](Cn2ccnc2)(c2ccc(F)cc2F)C1	CI-2	-	50 µg/mL
Nn1c(SCC(O)(Cn2cncn2)c2ccc(F)cc2F)nnc1-c1ccccc1	PTCC 6027	broth dilution	>64 µg/mL
Clc1ccccc1C(c1ccccc1)(c1ccccc1)n1ccnc1	-	-	12.5 µg/mL
O=C(CCn1ccnc1)c1cccc2ccccc12	RTCC 1003	broth dilution	>64 µg/mL
NC(=NC1CCCC1)c1ccc(-c2ccc(-c3ccc(C(N)=NC4CCCC4)cc3)o2)cc1	Isolate CA2256 fluconazole-resistant	-	25 µg/mL
Nn1c(SCC(O)(Cn2cncn2)c2ccc(F)cc2F)nnc1-c1ccncc1	ATCC 18804	broth dilution	>64 µg/mL
Cc1onc(-c2ccccc2)c1C=O	-	-	>50 µg/mL
COc1ccc(-c2nnc(SCC(O)(Cn3cncn3)c3ccc(F)cc3F)n2N)cc1	IRFC 37	broth dilution	>64 µg/mL
CCOC(=O)C(C#N)C(c1cc2cccc(C)c2n2nnnc12)P(=O)(OCC)OCC	MTCC 277	agar diffusion	15 µg/mL
Fc1ccc(CCCCn2c3c(c4cc(F)ccc42)CNCC3)cc1	OY2-79	-	1 µg/mL
CCS(=O)c1nnc(-c2cc([N+](=O)[O-])ccc2-c2ccco2)s1	ATCC 10231	-	25 µg/mL
Nn1c(SCC(O)(Cn2cncn2)c2ccc(F)cc2F)nnc1-c1ccc(Cl)cc1	ATCC 18804	broth dilution	>64 µg/mL
CC(C)C(=O)CCC[C@H]1CO[C@@](Cn2cncn2)(c2ccc(F)cc2F)C1	B02630	-	>100 µg/mL
Nn1c(SCC(O)(Cn2cncn2)c2ccc(F)cc2F)nnc1-c1ccc(O)cc1	PTCC 6027	broth dilution	>64 µg/mL
O=C(CCn1ccnc1)c1ccc(-c2ccccc2)cc1	RTCC1024	broth dilution	4 µg/mL
CCSc1nnc(-c2cc([N+](=O)[O-])ccc2-c2ccco2)s1	ATCC 10231	-	>100 µg/mL
NC(N)=N/N=C/c1ccc(-c2cc3ccc(/C=N/N=C(N)N)cc3s2)cc1	-	-	>60 µg/mL
OC(CCn1ccnc1)c1cccc(C(O)c2ccc(Cl)c(Cl)c2)c1	RTCC1024	broth dilution	32 µg/mL

A second listing of 4 rows from above:

smiles	strain or isolate	method	value
Clc1ccccc1C(c1ccccc1)(c1ccccc1)n1ccnc1	-	-	12.5 µg/mL
CCCCCCCCOc1ccc(C(=O)NC2C[C@@H](O)[C@@H](O)NC(=O)C3[C@@H](O)[C@@H](C)CN3C(=O)C(C(C)O)NC(=O)C([C@H](O)[C@@H](O)c3ccc(O)cc3)NC(=O)C3C[C@@H](O)CN3C(=O)C(C(C)O)NC2=O)cc1	MY1208	-	1 µg/mL
c1cc(-c2cc3ccc(C4=NCCN4)cc3s2)ccc1C1=NCCN1	-	-	>60 µg/mL
CC(C)C(=O)CCC[C@H]1CO[C@@](Cn2cncn2)(c2ccc(F)cc2F)C1	B02630	-	>100 µg/mL